Assay results reported in article PMC6465249, “Light chain modulates heavy chain conformation to change protection profile of monoclonal antibodies against influenza A viruses” (2019).

Assays:
[1] = molecular target: H4-CZ/56 HA (hemagglutinin of H4N6 A/duck/Czech/1956) (influenza A virus H4N6 A/duck/Czech/1956); test: crystal structure
[2] = molecular target: H3-AC/68 HA (hemagglutinin of H3N2 A/Aichi/2/1968) (influenza A virus H3N2 A/Aichi/2/1968); test: crystal structure

In the case of “H4-CZ/56 HA (hemagglutinin of H4N6 A/duck/Czech/1956) (natural protein)”, the stoichiometry N [1] is reported as 3.
Work on “H3-AC/68 HA (hemagglutinin of H3N2 A/Aichi/2/1968) (natural protein)” yielded a stoichiometry N [2] of 3.
